From patent US20060083830A1, “Polylysine-containing food additive and acidic adjuvant” (priority 2004, published 2006)

Test system: E. coli O157:H7
Experiment: E. coli O157:H7 on boiled dumplings with ε-polylysine in the dough, room temperature (22-25° C.), CFU determination
Conditions: for Log Reduction: vs control Group A

With “poly(imino(2-amino-1-oxo-1,6-hexanediyl)) [ε-PL]” the “average Log Value” (1000 ppm ε-PL, after 3 hours) was 3.35, the “average of CFU/dumpling” value (1000 ppm ε-PL, after 3 hours) was 2.25E+03 CFU/dumpling and the “Log Reduction” value (1000 ppm ε-PL, after 3 hours) was 0.35. For the same substance, the “average Log Value” (1000 ppm ε-PL, after 24 hours) was 6.56, the “average of CFU/dumpling” value (1000 ppm ε-PL, after 24 hours) was 3.61E+06 CFU/dumpling and the “Log Reduction” value (1000 ppm ε-PL, after 24 hours) was 2.34. For the same substance, the “average Log Value” (1000 ppm ε-PL, after 48 hours) was 7.81, the “average of CFU/dumpling” value (1000 ppm ε-PL, after 48 hours) was 6.51E+07 CFU/dumpling and the “Log Reduction” value (1000 ppm ε-PL, after 48 hours) was 1.89. The “average Log Value” (1000 ppm ε-PL, after 72 hours) was 8.24, the “average of CFU/dumpling” value (1000 ppm ε-PL, after 72 hours) was 1.74E+08 CFU/dumpling and the “Log Reduction” value (1000 ppm ε-PL, after 72 hours) was 1.61. The “average Log Value” (2000 ppm ε-PL, after 3 hours) was 2.05, the “average of CFU/dumpling” value (2000 ppm ε-PL, after 3 hours) was 1.13E+02 CFU/dumpling and the “Log Reduction” value (2000 ppm ε-PL, after 3 hours) was 1.65. The “average Log Value” (2000 ppm ε-PL, after 24 hours) was under 2.42, the “average of CFU/dumpling” value (2000 ppm ε-PL, after 24 hours) was under 2.64E+02 CFU/dumpling and the “Log Reduction” value (2000 ppm ε-PL, after 24 hours) was over 6.48. The “average Log Value” (2000 ppm ε-PL, after 48 hours) was over 5.66, the “average of CFU/dumpling” value (2000 ppm ε-PL, after 48 hours) was over 4.61E+05 CFU/dumpling and the “Log Reduction” value (2000 ppm ε-PL, after 48 hours) was under 4.05. For the same substance, the “average Log Value” (2000 ppm ε-PL, after 72 hours) was under 4.52, the “average of CFU/dumpling” value (2000 ppm ε-PL, after 72 hours) was under 3.33E+04 CFU/dumpling and the “Log Reduction” value (2000 ppm ε-PL, after 72 hours) was over 5.33. For the same substance, the “average Log Value” (3000 ppm ε-PL, after 3 hours) was 1.73, the “average of CFU/dumpling” value (3000 ppm ε-PL, after 3 hours) was 5.33E+01 CFU/dumpling and the “Log Reduction” value (3000 ppm ε-PL, after 3 hours) was 1.98. The “average Log Value” (3000 ppm ε-PL, after 24 hours) was under 2.70, the “average of CFU/dumpling” value (3000 ppm ε-PL, after 24 hours) was under 4.97E+02 CFU/dumpling and the “Log Reduction” value (3000 ppm ε-PL, after 24 hours) was over 6.20. The CFU/dumpling (3000 ppm ε-PL, after 48 hours) was under 1.00E+01 CFU/dumpling, the “average Log Value” (3000 ppm ε-PL, after 48 hours) was under 1.00 and the “average of CFU/dumpling” value (3000 ppm ε-PL, after 48 hours) was under 1.00E+01 CFU/dumpling. The “Log Reduction” value (3000 ppm ε-PL, after 48 hours) was over 8.71, the CFU/dumpling (3000 ppm ε-PL, after 72 hours) was under 1.00E+01 CFU/dumpling and the “average Log Value” (3000 ppm ε-PL, after 72 hours) was under 1.00. For the same substance, the “average of CFU/dumpling” value (3000 ppm ε-PL, after 72 hours) was under 1.00E+01 CFU/dumpling, the “Log Reduction” value (3000 ppm ε-PL, after 72 hours) was over 8.85 and the bacteria killed (3000 ppm, inoculation level 6.0×10^3 CFU/dumpling) was “more than 2 logs”. The “replication of E. coli O157:H7” value (final concentration of 3000 ppm in flour portion of dumpling) was “completely suppressed replication of E. coli O157:H7”.
